Values quoted from earlier work in patent publication US20230056788A1, “METHODS AND COMPOSITIONS FOR THE INHIBITION OF HEPATITIS B AND HEPATITIS D VIRUS INFECTIONS” (priority 2020, published 2023).

Test system: HBV
Settings: in vivo

## (2′OMeA, 2′OMe-5-MeC)20
  safety and tolerability: safe, well tolerated
